Reference: article PMC3466309, “Initial Characterization of the Pf-Int Recombinase from the Malaria Parasite Plasmodium falciparum”
For at least one entry, the source does not settle the construct or the ends of the probe. At least one verdict rests on a figure or table, not on a statement of the authors. Where a protein sequence is shown, tags need not be part of it.

How the values were obtained:
[1] = molecular target: T1, Pf-Int-C192 (Plasmodium falciparum 3D7) (UniProt C0H5A8); experiment: EMSA; conditions: EMSA: 50 mM Tris pH 8, 150 mM NaCl, 0.1 mM EDTA, 5 mM DTT, 50 ug/ml BSA, 2% glycerol, 0.5% Tween 20, 10 ug/ml poly(dI-dC) unless omitted, 10 nM DNA, 20 min at 20 C, recombinant protein, residues 192-490
T1 sequence (looked up): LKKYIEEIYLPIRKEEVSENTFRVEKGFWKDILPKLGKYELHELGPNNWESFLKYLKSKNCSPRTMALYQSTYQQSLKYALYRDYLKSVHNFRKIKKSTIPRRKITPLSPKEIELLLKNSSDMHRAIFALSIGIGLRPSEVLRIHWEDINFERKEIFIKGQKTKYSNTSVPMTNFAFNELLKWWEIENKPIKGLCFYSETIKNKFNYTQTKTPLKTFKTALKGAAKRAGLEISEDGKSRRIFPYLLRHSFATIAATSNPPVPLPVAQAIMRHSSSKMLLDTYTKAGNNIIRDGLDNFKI

[2] = molecular target: T1, Pf-Int-C192 (Plasmodium falciparum 3D7); experiment: competition with a labelled probe; conditions: 150-fold excess vs Selex8-22, text: interaction not sequence-specific; EMSA: 50 mM Tris pH 8, 150 mM NaCl, 0.1 mM EDTA, 5 mM DTT, 50 ug/ml BSA, 2% glycerol, 0.5% Tween 20, 10 ug/ml poly(dI-dC) unless omitted, 10 nM DNA, 20 min at 20 C; recombinant protein; residues 192-490

Sequence | binding result [2] | further results
ACCCAAACACACTGTGCGCGCGTCG (double strand) [Selex8-22] |  | binding result ([1]; 0.3 uM protein, 10 nM probe, label: 5'-DY682 (probe) or unlabeled (competitor)): binds
CAAACACACTGTGCGCGCGTCG (double strand) [Selex8] |  | binding result ([1]; no poly(dI-dC), label: 5'-DY682 on strand 1): binds
GCTAGTGCAAAAGGTTCAAAACCAAATTTACCAGAATCCAAT (double strand) [Hsp70 DNA] | binds | 
GGATCCGGTTATAACGAACGCCTAAGGGGCTGTCAACGCA (double strand) [Modified attC site] | binds | 
GTACTTACTCTAATCTAGTCGTAGTATGTATGCCTCAATGAA (double strand) [Random probe] | binds | 
TCTGAAGAAGCTGTTGCTTTAGTAGTTGATAATGGAAGTGGT (double strand) [ActinII DNA] | binds | 
